Results deposited as PubChem BioAssay AID1224833 (University of Georgia, 2016).

Aim: 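Human genes whose knock-down alters rotavirus replication in monkey cells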 (primary screen)
Cell system: monkey MA104 kidney cells
Reagent: siRNA pool against human genes, 50 nM
Duration: 48 h knock-down before infection; read 24 h after infection
Conditions: infection with rotavirus strain RV3 two days after transfection; infectious dose for this stage not given
Measurement: 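z-score of rotavirus antigen signal per well, from a fluorescent immunoassay, relative to non-targeting control wells on the same plate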
Reading the numbers: z-score vs non-targeting control: higher = more rotavirus replication than with non-targeting control
Rule for the call: In these data the active calls have z-score vs non-targeting control at about -1 or lower, or at about 1 or higher
Meaning of the calls: active = z-score beyond 1 either way; inactive = z-score within 1 of zero
This is a random part of about 12,000 reagents tested. About 5,600 of them (46%) count as active. 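Active calls cover z-scores past 1 in both directions, so they include lowered as well as raised rotavirus replication.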 Unmarked entries are inactive.

gene | PubChem SID | z-score vs non-targeting control
IQGAP1 | SID329576309 | 1.77 (active)
KLK14 | SID329578784 | 1.07 (active)
KIRREL2 | SID329581507 | 0.116
LRRC43 | SID329583695 | -1.5 (active)
FAM220A | SID329581725 | -0.556
FAM186B | SID329581509 | -0.569
WDR70 | SID329579565 | 1.13 (active)
CA7 | SID329572985 | 1.4 (active)
THAP2 | SID329581411 | -0.474
ZFP82 | SID329583890 | -0.884
LCT | SID329574284 | -0.889
SPATC1 | SID329584259 | -0.825
IFFO2 | SID329582561 | 1.13 (active)
CD2AP | SID329578088 | -1.97 (active)
PAQR6 | SID329581095 | -0.568
OR2M7 | SID329584450 | -1.03 (active)
KRTAP5-3 | SID329584290 | 1.78 (active)
PSMG1 | SID329576199 | -0.442
KRTAP5-1 | SID329584289 | -0.311
UGGT1 | SID329580067 | 1.43 (active)
IGSF9 | SID329580285 | -1.26 (active)
ZNF445 | SID329584198 | -0.887
NRG4 | SID329582901 | -0.209
PLXND1 | SID329577822 | 1.6 (active)
SIX6 | SID329574708 | -0.648
NPHP4 | SID329583788 | -0.47
ARHGEF4 | SID329578810 | 0.187
IGF2BP3 | SID329577294 | 2.12 (active)
TMBIM4 | SID329579157 | 1.3 (active)
TST | SID329575729 | 0.814
NOP9 | SID329583198 | 0.0396
PBXIP1 | SID329580216 | 0.837
ARMC1 | SID329579602 | -0.827
SNHG28 | SID329583907 | -0.875
ARHGEF10 | SID329576701 | -1.68 (active)
LACC1 | SID329582879 | -0.726
GRPEL2 | SID329582708 | -0.597
MRPS2 | SID329578918 | 1.21 (active)
FABP4 | SID329573595 | -1.07 (active)
FMNL2 | SID329582225 | -0.791
CELA3A | SID329576983 | 1.88 (active)
FSCN2 | SID329578162 | -0.496
NCAM2 | SID329574555 | -0.561
USPL1 | SID329577026 | -1.5 (active)
GPM6B | SID329573824 | -3.06 (active)

Look-ups from the list.
Under “z-score vs non-targeting control”, FAM220A [SID329581725] reads -0.556
GPM6B [SID329573824], z-score vs non-targeting control = -3.06 (active)
PSMG1 [SID329576199], z-score vs non-targeting control → -0.442
